Measured values from several laboratories, pooled; numbers as filed in NIAID ChemDB.

Shared fields: whole-cell or culture tests; agent: HIV-1

ECn: concentration that inhibits the pathogen or its effect by n%. Blank or dashed fields: not listed here. Two numbers with a dash give a range or band. Neighbouring rows are from separate reports.

compound,method,cells,mutations,strain or isolate,conditions,measure,result
Cc1cn([C@H]2C[C@H](N=[N+]=[N-])[C@@H](CO)O2)c(=O)[nH]c1=O,cytopathic effect,CEM,RT-V108I M184I,D-3 (RT-V108I M184I),,EC50,0.0042 µM
Cc1cn([C@H]2C=C[C@@H](CO)O2)c(=O)[nH]c1=O,cytopathic effect / MTT,MT-4,,IIIB,,EC50,0.034 µM
CCOC(=O)C(=O)CC(=O)c1cccc(Oc2ccnc(Nc3ccc(C#N)cc3)n2)c1,MTT,MT-4,K103N + Y181C,IIIB,,EC50,>13 µM
N#CN=C1N(CC2CCC2)[C@H](Cc2ccccc2)[C@H](O)[C@@H](O)[C@@H](Cc2ccccc2)N1CC1CCC1,hybridisation,MT-2,,RF,,EC50,<0.84 µM
O=c1[nH]cnc2c1ncn2[C@H]1CC[C@@H](CO)O1,ELISA,PBMC,,720,,EC50,0.6 µM
CN1CCS(=O)(=O)CC1c1nc(C(=O)NCc2ccc(F)cc2)c(O)c(=O)n1C,p24 / ELISA,MT-4,,IIIB,50% human serum,EC95,>1 µM
Nc1ccn([C@@H]2O[C@H](CO)C[C@@H]2F)c(=O)n1,p24 / ELISA,U-937,,LAV,,EC50,0.14 µg/mL
COC(=O)[C@H](C)NP(=O)(OC[C@@H]1CC[C@H](n2cnc3c(N)ncnc32)O1)Oc1ccccc1,syncytia,MOLT-4/C8 + MOLT-4,,IIIB,,EC50,0.016 µM
CSc1ccccc1NC(=O)CSc1nnnn1-c1ccccc1SC,β-galactosidase,HeLa CD4,41-215 (AZT-resistant),NL4.3-XCS,,EC50,0.137 µM
CCCCCCCCCCCCCC(=O)OC[C@H](COP(=O)(O)OP(=O)(O)OC[C@@H]1CC[C@H](n2cc(C)c(=O)[nH]c2=O)O1)OC(=O)CCCCCCCCCCCCC,plaque count,HT4 + HT4-6C,,AZT-resistant A012C Clinical isolate,,EC50,14 µM
Cc1cn([C@H]2C[C@H](N=[N+]=[N-])[C@@H](CO)O2)c(=O)[nH]c1=O,β-galactosidase,HeLa CD4,41-215 (AZT-resistant),NL4.3-XCS,,EC50,1.12 µM
Cc1ccc(-n2c(SCC(=O)Nc3ccc(C)cc3Br)nnc2C2CC2)cc1,luciferase,HeLa + HeLa-JC53,RT-K103N Y181C,NL4-3,,EC50,>10 µM
CC(C)=CCN1Cc2cc(Cl)cc3[nH]c(=S)n(c23)C[C@@H]1C,cytopathic effect / XTT,MT-4,RT-L100I Y188H,22(RT-L100I Y188H),,EC50,>10 µM
CCc1cc(NCc2nc3c(C)ccc(C)c3o2)c(=O)[nH]c1C,p24,MT-4,,IIIB,,EC95,0.025–0.05 µM
Nc1nc(NCCc2ccccc2)c2ncn(CCOCP(=O)(O)O)c2n1,cytopathic effect / MTT,MT-4,,IIIB,,EC50,9.9 µg/mL
CCOCn1c(Cc2cc(C)cc(C)c2)c(CC)c(=O)[nH]c1=O,cytopathic effect / MTT,MT-4,,IIIB,,EC50,0.0022 µM
O=[N+]([O-])c1ccccc1S(=O)(=O)c1ccccc1,,CEM + CEM-SS,,KELL,,EC50,4.6 µM
Cc1ccnc2c1NC(=O)c1cccnc1N2C1CC1,MTT,MT-4,,UG92029 (subtype A),,EC50,0.05 µg/mL
Cc1cn([C@@H]2O[C@H](CO)C[C@@H]2F)c(=O)[nH]c1=O,p24 / ELISA,CEM,,LAV,,EC50,>25 µg/mL
Cc1ccnc2c1NC(=O)c1cccnc1N2C1CC1,cytopathic effect / XTT,MT-4,RT-Y181C,T3-16(RT-Y181C),,EC50,15.5 µM
CCNc1nc(N(C)C)nc2c1ncn2C[C@@H](C)OCP(=O)(O)O,cytopathic effect / MTT,CEM,,IIIB,,EC50,>4 µg/mL
CC(C)=CCN1C(=NC#N)N(CC=C(C)C)[C@H](Cc2ccccc2)[C@H](O)[C@@H](O)[C@H]1Cc1ccccc1,hybridisation,MT-2,,RF,,EC50,<4.7 µM
Nc1nc(=O)n([C@@H]2CS[C@H](CO)O2)cc1F,,TZM-bl,E138G,LAI,,EC50,0.5 µM
Cc1ccc(NC(=O)CSc2nnc(C)n2-c2ccccc2Cl)c(Cl)c1,luciferase,HeLa + HeLa-JC53,RT-K103N Y181C,NL4-3,,EC50,0.1 µM
CC1=C(C(=O)Nc2ccc(Cl)c(C(=O)OC(C)C)c2)SCCO1,,CEM + CEM-SS,,RF,,EC50,0.42 µM
Cc1ccc2ccccc2c1-n1c(C)nnc1SCC(=O)Nc1ccccc1Br,luciferase,HeLa + HeLa-JC53,RT-Y188L,NL4-3,,EC50,0.21 µM
O=c1[nH]cnc2c1ncn2[C@H]1CC[C@@H](CO)O1,p24,MT-4,,HXB2D,,EC50,17 µM
NC(=O)C(c1ccccc1)(c1ccccc1)[C@H]1CCCN(CCOc2ccccc2)C1,cytopathic effect / XTT,MT-2,,NL4-3,,EC50,1.1 µM
Cc1ccnc2c1NC(=O)c1cccnc1N2C1CC1,cytopathic effect,MT-2,,IIIB,,EC50,0.03 µM
N#Cc1ccc(Nc2nccc(Oc3cccc(C(=O)CC(=O)C(=O)O)c3)n2)cc1,MTT,MT-4,L100I,IIIB,,EC50,>10 µM
Cc1ccnc2c1NC(=O)c1cccnc1N2C1CC1,cytopathic effect / XTT,CEM + CEM-SS,,IIIB,,EC50,0.01 µM
Cc1cc(S(N)(=O)=O)ccc1NC(=O)COc1ccc(Cl)cc1C(=O)c1cc(Cl)cc(C#N)c1,β-galactosidase,MAGI,RT-G190A,NNRTI-resistant (RT G190A),,EC50,0.0009 µM
CCc1c(CC2CCCCC2)nc(SCC(=O)c2ccccc2)[nH]c1=O,ELISA,C8166,,MN,,EC50,0.00562 µM
C[C@H](Cn1cnc2c(N)ncnc21)OCP(=O)(O)O,,TZM-bl,E138A,LAI,,EC50,8.7 µM
Cc1occc1C(=S)Nc1ccc(Cl)c(/C=N/OC(C)(C)C)c1,cytopathic effect / XTT,CEM + CEM-SS,RT-T139I,Calanolide A-resistant (RT T139I),,EC50,0.3 µM
Cc1cn([C@H]2C[C@H](N=[N+]=[N-])[C@@H](COP(=O)(O)O)O2)c(=O)[nH]c1=O,MTT,CEM + CEM-SS,,,,EC50,0.001 µM
Cc1cn([C@H]2CC[C@@H](CO)O2)c(=O)[nH]c1=O,p24,CEM/TK-,,BRU,,EC50,>100 µM
Cc1ccnc2c1NC(=O)c1cccnc1N2C1CC1,β-galactosidase,HeLa CD4,WT,NL4-3,,EC50,0.028 µM
CC1CCC(c2nc(C(=O)NCc3ccc(F)cc3)c(O)c(=O)n2C)N1C,p24 / ELISA,MT-4,,IIIB,10% FBS,EC95,>1 µM
CC[C@H]1C(=O)Nc2ccc(F)cc2N1C(=O)OC(C)C,cytopathic effect,CEM,RT-V108I M184I,D-3 (RT-V108I M184I),,EC50,0.0015 µg/mL
Cc1ccc2c(C)ccc(-n3c(C)nnc3SCC(=O)Nc3ccc(S(N)(=O)=O)cc3Cl)c2c1,luciferase,HeLa + HeLa-JC53,RT-Y188L,NL4-3,,EC50,0.006 µM
O=C1N(Cc2cccc(OCc3ccccc3)c2)[C@H](Cc2ccccc2)[C@H](O)[C@@H](O)[C@@H](Cc2ccccc2)N1Cc1cccc(OCc2ccccc2)c1,hybridisation,MT-2,,RF,,EC90,>70 µM
CC(C)=CCN1Cc2cccc3[nH]c(=S)n(c23)C[C@@H]1C,cytopathic effect,MT-2,RT-R83K L100I,IIIB,,EC50,>30 µM
COc1cc(-n2c(C)nnc2SCC(=O)Nc2ccc(S(N)(=O)=O)cc2Cl)c2ncccc2c1,luciferase,HeLa + HeLa-JC53,RT-Y188L,NL4-3,,EC50,0.37 µM
O=[N+]([O-])c1ccccc1Sc1ccccc1,cytopathic effect / XTT,CEM + CEM-SS,,RF,,EC50,43 µM
O=C1N(CC2CCC2)[C@H](Cc2ccccc2)[C@H](O)[C@@H](O)[C@@H](Cc2ccccc2)N1CC1CCC1,hybridisation,MT-2,,RF,,EC50,<1 µM
CCOCn1c(Sc2cc(C)cc(C)c2)c(CC)c(=O)[nH]c1=S,cytopathic effect / MTT,MOLT-4,,IIIB,,EC50,0.0031 µM
CC(C)CNc1nc(N)nc2c1ncn2CCOCP(=O)(O)O,cytopathic effect / MTT,CEM,,IIIB,,EC50,0.5 µg/mL
C#C[C@@]1(CO)C=C[C@H](n2cc(C)c(=O)[nH]c2=O)O1,β-galactosidase,MAGI (CCR5) + MAGI,RT-M184V,HXB2,,EC50,17 µM
Cc1cn([C@H]2C[C@H](N=[N+]=[N-])[C@@H](CO)O2)c(=O)[nH]c1=O,cytopathic effect / XTT,MT-4,RT-Y181C,T3-16(RT-Y181C),,EC50,0.006 µM
CCOCn1c(Sc2cc(C)cc(C)c2)c(CC)c(=O)[nH]c1=O,cytopathic effect / MTT,MT-4,,HE,,EC50,0.016 µM
CC[C@H](C)[C@@H](C(=O)O)n1sc2ccccc2c1=O,p24 / RT activity,CEM,,AZT-resistant,,EC50,10.5 µM
c1ccc(CNc2nc(-c3cccnc3)cs2)cc1,β-galactosidase,HeLa CD4,K103N (NVP),NL4.3-XCS,,EC50,2.141 µM
COc1ccc(-n2c(C)nnc2SCC(=O)Nc2ccc(C)cc2Cl)c2ccccc12,luciferase,HeLa + HeLa-JC53,RT-Y188L,NL4-3,,EC50,0.24 µM
C[C@@H]1C[C@@H](c2nc(C(=O)NCc3ccc(F)cc3)c(O)c(=O)n2C)N(C)C1,p24 / ELISA,MT-4,,IIIB,10% FBS,EC95,>1 µM
COc1ccc(C(=O)N2CCN(c3ccc4c(c3)CCC(=O)N4)CC2)cc1OC,RT activity,U-937/HIV-1(IIIB) + U-937,,IIIB,,EC50,~10 µg/mL
C[C@H](NC(=O)[C@H](CCCN=C(N)N)NC(=O)c1ccc(CNCc2ccccn2)cc1)c1cccc2ccccc12,p24,PBMC,,YU-6 X4 clinical isolate,,EC50,0.046 µM
Cc1ccnc2c1NC(=O)c1cccnc1N2C1CC1,cytopathic effect / XTT,MAC,,BaL,,EC50,0.4 µM
Cc1ccc(S(=O)(=O)c2ccccc2[N+](=O)[O-])cc1,cytopathic effect / XTT,CEM + CEM-SS,,RF,,EC50,6.2 µM
Cc1cn([C@H]2C[C@H](N=[N+]=[N-])[C@@H](CO)O2)c(=O)[nH]c1=O,cytopathic effect / XTT,CEM + CEM-SS,,NL4-3,,EC50,0.003 µM
CCc1cc(NCc2nc3c(C)ccc(C)c3o2)c(=O)[nH]c1C,p24,MT-4,,A17,,EC50,<25 µM
CCc1cc(NCc2nc3ccccc3o2)c(=O)[nH]c1C,p24,H9,,IIIB,,EC95,0.9 µM
CCc1cc(NCc2nc3ccccc3o2)c(=O)[nH]c1C,p24,MT-4,,IIIB,,EC95,0.2 µM
COC(=O)[C@H](C)NP(=O)(OC[C@@H]1C=C[C@H](n2cnc3c(N)ncnc32)O1)Oc1ccccc1,syncytia,MT-4,,IIIB,,EC50,0.007 µM
Cc1ccc(NC(=S)NCCc2c(F)cccc2F)nc1,cytopathic effect,MT-4,,IIIB,,EC50,0.33 µM
Cc1cn([C@H]2C=C[C@@H](CO)O2)c(=O)[nH]c1=O,p24,PBMC,,IIIB,,EC50,0.019 µM
Cc1cn([C@H]2C[C@H](N=[N+]=[N-])[C@@H](CO)O2)c(=O)[nH]c1=O,p24,MT-4,,IIIB,,EC95,0.025 µM
NC(=O)C(c1ccccc1)(c1ccccc1)[C@H]1CCCN(CCc2ccc3c(c2)CCO3)C1,cytopathic effect / XTT,C8166,,NL4-3,,EC50,0.69 µM
C/C=C/CSc1cc(NC(=S)c2ccsc2C)ccc1Cl,cytopathic effect / XTT,CEM + CEM-SS,RT-V179D,NL4-3 (RT V179D),,EC50,0.3 µM
C[C@H]1C[C@@H](c2nc(C(=O)NCc3ccc(F)cc3)c(O)c(=O)n2C)N(C)C1,p24 / ELISA,MT-4,,IIIB,50% human serum,EC95,>1 µM
CC(C)Nc1cccnc1N1CCN(C(=O)c2cc3cc(NS(C)(=O)=O)ccc3[nH]2)CC1,cytopathic effect,CEM,RT-V106A,E-2 (RT-V106A),,EC50,0.045 µg/mL
Cc1cn([C@H]2C[C@H](N=[N+]=[N-])[C@@H](CO)O2)c(=O)[nH]c1=O,cytopathic effect / XTT,CEM + CEM-SS,,MN,,EC50,0.004 µM
c1cc(CN2CCCNCCNCCCNCC2)ccc1CN1CCCNCCNCCCNCC1,MTT,MT-4,,AMD3100RES (subtype B),,EC50,0.08 µg/mL
O=c1[nH]cnc2c1ncn2[C@H]1CC[C@@H](CO)O1,p24,PBMC,,Isolate 2748,,EC50,6.47 µM
CCCCNc1nc(N)nc2c1[nH]c[n+]2C[C@@H](C)OCP(=O)(O)O,cytopathic effect / MTT,CEM,,IIIB,,EC50,10 µg/mL
Cc1ccnc2c1NC(=O)c1cccnc1N2C1CC1,MTT,MT-4,Y181C,IIIB,,EC50,>15 µM
O=c1[nH]cnc2c1ncn2[C@H]1CC[C@@H](CO)O1,cytopathic effect,MT-2,,IIIB,,EC50,3.1 µM
O=C1N(Cc2ccccc2)[C@H](Cc2ccccc2)[C@H](O)[C@@H](O)[C@@H](Cc2ccccc2)N1Cc1ccccc1,hybridisation,MT-2,,RF,,EC50,<0.83 µM
O=c1[nH]cnc2c1ncn2[C@H]1CC[C@@H](CO)O1,RT activity,MT-4,RT-M184V,HXB2-D184 (RT-M184V),,EC50,39.8 µM
Nc1ccn([C@H]2CC[C@@H](CO)O2)c(=O)n1,cytopathic effect,MT-2,RT-L100I,R82150 (RT-L100I),,EC50,0.11 µM

6 of the rows above, restated:

compound | method | cells | mutations | strain or isolate | conditions | measure | result
C[C@H](Cn1cnc2c(N)ncnc21)OCP(=O)(O)O |  | TZM-bl | E138A | LAI |  | EC50 | 8.7 µM
Cc1ccc2ccccc2c1-n1c(C)nnc1SCC(=O)Nc1ccccc1Br | luciferase | HeLa + HeLa-JC53 | RT-Y188L | NL4-3 |  | EC50 | 0.21 µM
CC1CCC(c2nc(C(=O)NCc3ccc(F)cc3)c(O)c(=O)n2C)N1C | p24 / ELISA | MT-4 |  | IIIB | 10% FBS | EC95 | >1 µM
Cc1ccnc2c1NC(=O)c1cccnc1N2C1CC1 | cytopathic effect / XTT | MAC |  | BaL |  | EC50 | 0.4 µM
CCCCCCCCCCCCCC(=O)OC[C@H](COP(=O)(O)OP(=O)(O)OC[C@@H]1CC[C@H](n2cc(C)c(=O)[nH]c2=O)O1)OC(=O)CCCCCCCCCCCCC | plaque count | HT4 + HT4-6C |  | AZT-resistant A012C Clinical isolate |  | EC50 | 14 µM
NC(=O)C(c1ccccc1)(c1ccccc1)[C@H]1CCCN(CCOc2ccccc2)C1 | cytopathic effect / XTT | MT-2 |  | NL4-3 |  | EC50 | 1.1 µM